The list shows a part of the results. Env chains of viruses from a treatment-interruption trial, translated from the printed DNA. IC50 / IC80 of two broadly neutralizing antibodies; lower = more sensitive virus; >50 µg/ml means not reached and <0.001 µg/ml is below the lowest dose. No active / inactive call.
Columns and labels:
antibody 10-1074 [1] = assay: neutralization IC50; higher = virus less sensitive to the antibody
Description: (§1)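 Pseudovirus bearing the Env chain mixed with antibody, from 50 µg/ml in fivefold dilutions, on TZM-bl reporter cells, in duplicate.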

antibody 3BNC117 [2] = assay: as above
Description: as §1

antibody 10-1074 [3] = assay: neutralization IC80; higher = virus less sensitive to the antibody
Description: as §1

antibody 3BNC117 [4] = assay: as above
Description: as §1

| Binder | neutralization IC50 (antibody 10-1074 [1]) | neutralization IC50 (antibody 3BNC117 [2]) | neutralization IC80 (antibody 10-1074 [3]) | neutralization IC80 (antibody 3BNC117 [4]) |
| --- | --- | --- | --- | --- |
| HIV-1 Env, reservoir clone (protein) MKVRVMQRNWQHLGRWGLLFLGLLICCNATEQLWVTVYYGVPVWKEATTTLFCASDAKGYEKEAHNVWATHACVPTDPNPQEIPLVNVTENFNMWKNNMVEQMQTDIISLWDQSLKPCVKLTPLCVTLNCNNNIKWANGNNSTNPDMKNCSFNMTTEVRDKRLKVSALFYKIDLTPINKSSGEYRLINCNTSTIKQACPKVSWDPIPIHYCAPAGYAILKCRDKNFNGTGPCNNVSTVQCTHGIKPVVSTQLLLNGSLAEEDIVIRTQNISDNAKTIIVSLNESVSINCIRPGNNTRKSIHIGPGQVFYANNDIIGDIRKAFCTLNGTQWNKTLDRVKAKLRSLFNKTTIIFAQPSGGDLEVTMHSFNCRGEFFYCNTSGLFNNNTFNNTGGNENITLPCRIKQIINMWQGVGQAMYTAPIAGNITCVSNITGLLLTRDGGPDNDNETFRPGGGDMRDNWRSELYKYKVVEIEPLGIAPTRAKRQVVRRERRAVGIGAMFLGFLGAAGSTMGAASIALTVQARQLLSGIVQQQNNLLRAIEAQQHLLQLTVWGIKQLQARVLAVERYLKDQQLLGVWGCSGKLICTTSVPWNSSWSNKSQQEIWDNMTWMDWEREISNYSQTIYKLLEESQYQQDKNEQELLALDKWASLWNWFDISNWLWYIRIFIMIVGGLIGLRMVFAVLAIVNRVRKGYSPLSLQTLIPNSRGPDRPEGIEEGGGEQDRDRSVRLVNGFLALVWDDLRNLCLFSYRLLRDFILIAARTVDRGLRGGWKALKYLWNLTQYWSRELRDSAISLYNSIAIAVAEGTDRIIEALLIIGRGILHIPRRIRQGLERALL | > 50 µg/mL | 0.374 µg/mL | > 50 µg/mL | 1.78 µg/mL |
| HIV-1 Env, reservoir clone (protein) MKVRVMQRNWQHLGRWGLLFLGLLICCNATEQLWVTVYYGVPVWKEATTTLFCASDAKGYEKEAHNVWATHACVPTDPNPQEIPLVNVTENFNMWKNNMVEQMQTDIISLWDQSLKPCVKLTPLCVTLNCNNNIKWATGNNSTNPDMKNCSFNMTTEVRDKRLKVSALFYKIDLTPINKSSGEYRLINCNTSTIKQACPKVSWDPIPIHYCAPAGYAILKCRDKNFNGTGPCNNVSTVQCTHGIKPVVSTQLLLNGSLAEEDIVIRTQNISDNAKTIIVSLNESVSINCIRPGNNTRKSIHIGPGQVFYANNDIIGDIRKAFCTLNGTQWNKTLDRVKAKLRSLFNKTTIIFAQPSGGDLEVTMHSFNCRGEFFYCNTSGLFNDIDSNITLPCRIKQIINMWQGVGQAMYTAPIAGNITCVSNITGLLLTRDGGPDNDNETFRPGGGDMRDNWRSELYKYKVVEIEPLGIAPTRAKRQVVRRERRAVGIGAMFLGFLGAAGSTMGAASIALTVQARQLLSGIVQQQNNLLRAIEAQQHLLQLTVWGIKQLQARVLAVERYLKDQQLLGVWGCSGKLICTTSVPWNSSWSNKSQQEIWDNMTWMDWEREISNYSQTIYKLLEESQYQQDKNEQELLALDKWASLWNWFDISNWLWYIRIFIMIVGGLIGLRIVFAVLAIVNRVRKGYSPLSLQTLIPNSRGPDRPEGIEEGGGEQDRDRSVRLVNGFLALVWDDLRNLCLFSYRLLRDFILIAARTVDRGLRGGWKALKYLWNLTQYWSRELKDSAISLYNSIAIAVAEGTDRIIEALQIIVRGVLHIPRRIRQGLERALL | > 50 µg/mL | 0.062 µg/mL | > 50 µg/mL | 0.791 µg/mL |
| HIV-1 Env, reservoir clone (protein) MKAKETRKNYQHLWRWGIMLLGMLMICSAASQLWVTVYYGVPVWKEATTTLFCASDAKAYDTEVHNVWATHACVPTDPNPQEVVLGNVTEDFNMWKNNMVEQMHEDIISLWDQSLKPCVKITPLCVTLNCTEYSNATSTTWGQMEKGEIKNCSFNVTTNIKNKMQKEYALFYKLDVVPIGDNSTNYRLIKCNTSAITQACPKVSFQPIPIHYCAPAGFAILKCNNKTFNGLGPCTNVSTVQCTHGIRPVVSTQLLLNGSLAEEEIVIRSENFSDNAKIIIVHLNASIEINCTRPNNNTRKSITIGPGRAFYATGDVIGDIRQAHCNISGEKWNEALKQIAIKLREQFGHNKTIVFNQSSGGDPEIVAHSVNCGGEFFYCNSTKLFNSTWTRNNTTESNETITLPCKIKQIINLWQEVGKAIYAPPISGPIRCSSNITGLLLTRDGGNTSETNKETFRPGGGDMRDNWRSELYKYKVVKIEPLGVAPTKAKRRVVQRERRAVGTFGALFLGFLGTAGSTMGAASITLTVQARQLLSGIVQQQNNLLKAIEAQQHLLQLTVWGIKQLQARVLAVERYLKDQQLLGLWGCSGKLICTTTVPWNASWSNKSLEQIWENMTWMQWEKEIDNYTGIIYSLISESQLQQEKNEKELLELDKWASLWTWFDITNWLWYIRIFIMIVGGLIGLRIVFAVLSIVNRVRKGYSPLSFQTRLPTPRGPDRPEGIEEEGGERGRDTSIRLVDGFLALIWDDLRNLCLFSYHHLRDLILIVVRTVELLGRRGWELLKYWWNLLKYWSQELKKSAVSLFNAAAIAVAEGTDRVIEVVQRAGRGILHVPRRIRQGLERALQ | 0.001 µg/mL | 0.047 µg/mL | 0.003 µg/mL | 0.198 µg/mL |
| HIV-1 Env, reservoir clone (protein) MKAKETRKNYQHLWRWGIMLLGMLMICSAASQLWVTVYYGVPVWKEATTTLFCASDAKAYDTEVHNVWATHACVPTDPNPQEVVLGNVTEDFNMWKNNMVEQMHEDIISLWDQSLKPCVKITPLCVTLNCTEYRNATSTTWGQMEKGEIKNCSFNVTTNIKNKMQKEYALFYKLDVVPIGDNSTNYRLIKCNTSAITQACPKVSFQPIPIHYCAPAGFAILKCNNKTFNGLGPCTNVSTVQCTHGIRPVVSTQLLLNGSLAEEEIVIRSENFSDNAKIIIVHLNASIEINCTRPNNNTRKSITIGPGRAFYATGDVIGDIRQAHCNISGEKWNEALKQIAIKLREQFGHNKTIVFNQSSGGDPEIVAHSVNCGGEFFYCNSTKLFNSTWTRNNTTESNETITLPCKIKQIINLWQEVGKAIYAPPISGPIRCSSNITGLLLTRDGGNTSETNKETFRPGGGDMRDNWRSELYKYKVVKIEPLGVAPTKAKRRVVQRERRAVGTFGALFLGFLGTAGSTMGAASITLTVQARQLLSGIVQQQNNLLKAIEAQQHLLQLTVWGIKQLQARVLAVERYLKDQQLLGLWGCSGKLICTTTVPWNASWSNKSLEQIWENMTWMQWEKEIDNYTGIIYSLISESQLQQEKNEKELLELDKWASLWTWFDITNWLWYIRIFIMIVGGLIGLRIVFAVLSIVNRVRKGYSPLSFQTRLPTPRGPDRPEGIEEEGGERGRDTSIRLVDGFLALIWDDLRNLCLFSYHHLRDLILIVVRTVELLGRRGWELLKYWWNLLKYWSQELKKSAVSLFNAAAIAVAEGTDRVIEVVQRAGRGILHVPRRIRQGLERALQ | < 0.001 µg/mL | 0.021 µg/mL | 0.001 µg/mL | 0.117 µg/mL |
| HIV-1 Env, reservoir clone (protein) MKAKETRKNYQHLWRWGIMLLGMLMICSAASQLWVTVYYGVPVWKEATTTLFCASDAKAYDTEVHNVWATHACVPTDPNPQEVVLGNVTEDFNMWKNNMVEQMHEDIISLWDQSLKPCVKITPLCVTLNCTEYSNATSTTGGQMEKGEIKNCSFNVTTNIKNKMQKEYALFYKLDVVPIGDNSTNYRLIKCNTSAITQACPKVSFQPIPIHYCAPAGFAILKCNNKTFNGLGPCTNVSTVQCTHGIRPVVSTQLLLNGSLAEEEIVIRSENFSDNAKNIIVHLNASIEINCTRPNNNTRKSITIGPGRTFYATGDVIGDIRQAHCNISGEKWNEALKQIAIKLREQFGHNKTIVFNHSSGGDPEIVAHSVNCGGEFFYCNSTKLFNSTWHSNGTQNNTTESNETITLPCKIKQIINLWQEVGKAIYAPPISGPIRCSSNITGLLLTRDGGNTSETNKETFRPGGGDMRDNWRSELYKYKVVKIEPLGVAPTKAKRRVVQRERRAVGTFGALFLGFLGTAGSTMGAASITLTVQARQLLSGIVQQQNNLLKAIEAQQHLLQLTVWGIKQLQARVLAVERYLKDQQLLGLWGCSGKLICTTTVPWNASWSNKSLEQIWENMTWMQWEKEIDNYTGIIYSLISESQLQQEKNEKELLELDKWASLWTWFDITNWLWYIRIFIMIVGGLIGLRIVFAVLSIVNRVRKGYSPLSFQTRLPTPRGPDRPEGIEEEGGERGRDTSIRLVDGFLALIWDDLRNLCLFSYHHLRDLILIVVRTVELLGRRGWELLKYWWNLLKYWSQELKKSAVSLFNAAAIAVAEGTDRVIEVVQRAGRGILHVPRRIRQGLERALQ | < 0.001 µg/mL | 0.027 µg/mL | < 0.001 µg/mL | 0.169 µg/mL |
| HIV-1 Env, reservoir clone (protein) MKVRVMQRNWQHLGRWGLLFLGLLICCNATEQLWVTVYYGVPVWKEATTTLFCASDAKGYEKEAHNVWATHACVPTDPNPQEIPLVNVTENFNMWKNNMVEQMQTDIISLWDQSLKPCVKLTPLCVTLNCNNNIKWANGNNSTNPDMKNCSFNMTTEVRDKRLKVSALFYKIDLTPINKSSGEYRLINCNTSTIKQACPKVSWDPIPIHYCAPAGYAILKCRDKNFNGTGPCNNVSTVQCTHGIKPVVSTQLLLNGSLAEEDIVIRTQNISDNAKTIIVSLNESVSINCIRPGNNTRKSIHIGPGQVFYANNDIIGDIRKAFCTLNGTQWNKTLDRVKAKLRSLFNKTTIIFAQPSGGDLEVTMHSFNCRGEFFYCNTSGLFNDIDSNITLPCRIKQIINMWQGVGQAMYTAPIAGNITCVSNITGLLLTRDGGPDNDNETFRPGGGDMRDNWRSELYKYKVVEIEPLGIAPTRAKRQVVRRERRAVGIGAMFLGFLGAAGSTMGAASIALTVQARQLLSGIVQQQNNLLRAIEAQQHLLQLTVWGIKQLQARVLAVERYLKDQQLLGVWGCSGKLICTTSVPWNSSWSNKSQQEIWDNMTWMDWEREISNYSQTIYKLLEESQYQQDKNEQELLALDKWASLWNWFDISNWLWYIRIFIMIVGGLIGLRIVFAVLAIVNRVRKGYSPLSLQTLIPNSRGPDRPEGIEEGGGEQDRDRSVRLVNGFLALVWDDLRNLCLFSYRLLRDFILIAARTVDRGLRGGWKALKYLWNLTQYWSRELKDSAISLYNSIAIAVAEGTDRIIEALQIIVRGVLHIPRRIRQGLERALL | > 50 µg/mL | 0.043 µg/mL | > 50 µg/mL | 0.707 µg/mL |
